Reference: PubChem BioAssay AID1259414 (Drosophila RNAi Screening Center, 2018)
The screen tested about 24,000 reagents; shown is an unselected part of those with a known target gene and a result. Over the whole deposit, about 1,210 (5%) got an active call. 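Inactive calls also include excluded dsRNAs with several or no targets, genes unexpressed in JW18, and well A1, regardless of score.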 A number with no mark means an inactive call. Reagents against one gene are numbered here.

Screen: 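Host factors increasing or decreasing Wolbachia levels in cultured fly cells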 (primary screen)
Cells: Drosophila JW18 cells infected with Wolbachia
Knock-down reagent: long dsRNA against Drosophila genes, 0.25 µg dsRNA per well of a 384-well plate
Duration: 5 days
Conditions: cells persistently infected with Wolbachia before knock-down; no added drug
Detection: 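Automated imaging of bacterial rRNA staining divided by host cell count, reported as plate-normalised robust z-score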
Reading the numbers: Wolbachia per cell robust z: higher = more Wolbachia per host cell than the plate typical
Hit rule: 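Hit when robust z is 1.5 or more, or -1.5 or less, in at least two of three replicates; excludes dsRNAs with several or no targets, genes not expressed in JW18 and well A1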

gene	reagent no.	Wolbachia per cell robust z, rep 1	Wolbachia per cell robust z, rep 2	Wolbachia per cell robust z, rep 3
Cap-H2	1	0.869	-0.792	0.811
CG34324	1	-3.25	0.739	0.379
CG13196	1	0.178	-1.67	0.286
Haspin	1	0.912	1.18	0.72
Haspin	2	-0.0184	-0.174	-0.147
Phb2	1	1.29	-1.89	1.1
kkv	1	0.245	0.563	-0.697
CG17199	1	1.04	1.19	-0.37
Andorra	1	-0.111	0.243	-0.475
CG15019	1	-0.952	-1.38	-0.386
ATP7	1	1.36	1.02	-0.233
CG14777	1	0.969	0.0659	0.703
CG42446	1	0.462	0.448	-1.2
Adck5	1	1.08	0.128	0.877
Pld3	1	-0.592	0.477	-2.44
Jon66Cii	1	0.52	-4.21	-0.0543
Jon66Cii	2	0.171	-0.59	0.327
su(r)	1	-0.647 (active)	-9.35	-2.52
CG3631	1	-0.343	0.048	-0.0514
CG3631	2	-1.76 (active)	-0.437	-7.84
CG33927	1	-0.162	-1.89	-1.18
lobo	1	0.424	0.162	-3.8
lobo	2	-1.5	0.473	-4.63
lobo	3	-1.52	-0.761	-0.907
CG10486	1	0.238	0.2	0.113
CG6403	1	-4.04	-1.8	0.683
CG18823	1	-0.224	-6.8	0.246
CG5850	1	-0.152	0.698	2.27
CG10147	1	-1.89	-0.224	-1.41
CG10147	2	0.158	0.653	0.0226
Pof	1	-0.173	-6.66	0.34

Ordered by “Wolbachia per cell robust z, rep 1” (low to high): 6 of the entries above.
gene	reagent no.	Wolbachia per cell robust z, rep 1	Wolbachia per cell robust z, rep 2	Wolbachia per cell robust z, rep 3
CG15019	1	-0.952	-1.38	-0.386
Andorra	1	-0.111	0.243	-0.475
kkv	1	0.245	0.563	-0.697
CG17199	1	1.04	1.19	-0.37
Phb2	1	1.29	-1.89	1.1
ATP7	1	1.36	1.02	-0.233

Next reagents follow.
gene	reagent no.	Wolbachia per cell robust z, rep 1	Wolbachia per cell robust z, rep 2	Wolbachia per cell robust z, rep 3
timeout	1	-1.58	0.0264	0.335
timeout	2	1.03	0.841	-2.45
timeout	3	-0.46	0.305	0.157
timeout	4	0.626	-0.383	1.2
timeout	5	-0.671	0.327	-0.55
timeout	6	0.747	0.444	-0.896
lncRNA:CR42736	1	-2.57	-0.00388	-0.192
GEFmeso	1	-2.24	0.379	-1.03
GEFmeso	2	1.13	0.465	0.849
GEFmeso	3	-1.76 (active)	-1	-1.54
Akap200	1	1.06 (active)	-4.51	-1.57
Akap200	2	0.0811	-2.11	-1.26
Akap200	3	-0.698	1.43	0.535
CG43867	1	-1.71	0.0884	-0.91
CG43867	2	-0.8 (active)	-7.11	-2.05
CG43867	3	-2.03	0.13	0.105
CG43867	4	0.475	-1.56	0.629
CG43867	5	0.656	-0.807	0.393
CG43867	6	0.276	-0.291	0.672
